{"source": "patent US20200267989A1", "about": "“PARASITE TREATMENT COMPOUND” (University of Maine System Board of Trustees, priority 2017, published 2020)", "test_system": "sea lice", "assay": "Pilot laboratory trial: KCl pre-treatment plus mechanical devices for removal of sea lice from Atlantic salmon", "assay_type": "in vivo", "experimental": "A pilot laboratory trial was run using various forms of mechanical devices for removal of sea lice from Atlantic salmon (ATS). The effectiveness of the mechanical devices at removing/detaching lice was measured with and without KCl pretreatment, and the results compared.\nThe experiment consisted of testing 3 mechanical devices on lice infested Atlantic salmon (ATS) in seawater and then on lice infested Atlantic salmon that had been pre-treated in seawater with KCL at 4 part per thousand (PPT) or 2 PPT for 5 or 15 minutes. The mechanical treatment referred to as Treatment A in Table 1 was a water spray apparatus including multiple jets in a roughly circular arrangement, and treatments B and C in Table 1 were alternative mechanical treatments. Each treatment group was run separately with two fish were staggered by 15 minutes to facilitate counting lice, except for Treatment C as both fish were placed together. The treatment groups were as follows: • 1) Treatment A with seawater (2 fish) • 2) Treatment A with sea water plus KCL 4 PPT, 15 minutes (2 fish) • 3) Treatment B with seawater (2 fish) • 4) Treatment B with sea water plus KCL 4 PPT, 15 minutes (2 fish) • 5) Treatment A with seawater plus 2PPT, 15 minutes (1 fish) • 6) Treatment A with sea water plus KCL 4 PPT, 5 minutes (1 fish) • 7) Treatment C with seawater (2 fish) • 8) Treatment C sea water plus KCL 2 PPT (2 fish)\nEach treatment group was performed essentially as follows:\nPre-Treatment before Treatment A, B, or C • 1) Take 1 fish and transfer it to Tank 1 (70 liter tank); • 2) Take 1 fish and transfer it to Tank 2, staggered (70 liter tank); • 3) Both tanks will be filled with seawater for Round 1 of a treatment group and seawater and KC1 4PPT X for Round 2 for a treatment; • 4) Fish swim around freely in treatment Tank 1 for 30 minutes; • 5) Fish swim around freely in treatment Tank 2 for 30 minutes;\nEvaluation of Pretreatment: • 1) Remove Fish from Tank 1; • 2) Place 1 Fish in Sedation Tank; • 3) Count detached lice in Tank 1; • 4) Remove 1 Fish from Sedation Tank; • 5) Count numbers of Lice on each fish (making sure to differentiate between the two tanks); • 6) Repeat for staggered Tank 2.\nPerform Mechanical Treatment: • 1) Pass fish through mechanical treatments (A, B or C) • 2) Count lice on fish", "note": "Values joined by “and” are separate entries in the source; they are usually repeats but may differ in a detail not shown here. Identical values can stand only once. Some results come without the dose or concentration used."}
{"compound": "[Cl-].[K+]", "note": "[KCl, potassium chloride]", "values": [{"measurement": "Sealice counts: Total", "setting": "Mechanical Treatment A, KCl 2 PPT in seawater, treatment time 15 min", "value": 115}, {"measurement": "Sealice counts: Total", "setting": "Mechanical Treatment A, KCl 4 PPT in seawater, treatment time 5 min", "value": 145}, {"measurement": "Sealice counts: Total", "setting": "Mechanical Treatment A, KCl 4 PPT in seawater, treatment time 15 min", "value": "108 and 116"}, {"measurement": "Sealice counts: Total", "setting": "Mechanical Treatment B, KCl 4 PPT in seawater, treatment time 15 min", "value": "96 and 91"}]}
